Measured values from publication PMC7865074.

Target: full-length (FL) NS5 protein (wt PBM) of West Nile virus (West Nile virus)
Assay: split reporter (BiFC, NanoBiT); N2H split-NanoLuc in HEK-293T cells; full-length NS5 with 257 single PDZ domains; read-out NLR with NS5 minus NLR with NS5ΔPBM, three experiments; hits > 0.25

| Substance | NLR(NS5) - NLR(NS5ΔPBM) |
| --- | --- |
| Disks large homolog 1, PDZ domain 1 (N2H construct) (from UniProt Q12959 224-310) (domain or fragment) | 0.82 |
| Disks large homolog 2, PDZ domain 1 (N2H construct) (from UniProt Q15700 98-184) (domain or fragment) | 1 |
| Sorting nexin-27, PDZ domain (N2H construct) (from UniProt Q96L92 43-136) (domain or fragment) | 2.74 |
